We go through five compounds from publication PMC10492761, “Identification of sodium channel toxins from marine cone snails of the subgenera Textilia and Afonsoconus” (2023).

Chains of the proteins cited; added tags and fusions are not shown.
UniProt Q15858, whole entry, looked up: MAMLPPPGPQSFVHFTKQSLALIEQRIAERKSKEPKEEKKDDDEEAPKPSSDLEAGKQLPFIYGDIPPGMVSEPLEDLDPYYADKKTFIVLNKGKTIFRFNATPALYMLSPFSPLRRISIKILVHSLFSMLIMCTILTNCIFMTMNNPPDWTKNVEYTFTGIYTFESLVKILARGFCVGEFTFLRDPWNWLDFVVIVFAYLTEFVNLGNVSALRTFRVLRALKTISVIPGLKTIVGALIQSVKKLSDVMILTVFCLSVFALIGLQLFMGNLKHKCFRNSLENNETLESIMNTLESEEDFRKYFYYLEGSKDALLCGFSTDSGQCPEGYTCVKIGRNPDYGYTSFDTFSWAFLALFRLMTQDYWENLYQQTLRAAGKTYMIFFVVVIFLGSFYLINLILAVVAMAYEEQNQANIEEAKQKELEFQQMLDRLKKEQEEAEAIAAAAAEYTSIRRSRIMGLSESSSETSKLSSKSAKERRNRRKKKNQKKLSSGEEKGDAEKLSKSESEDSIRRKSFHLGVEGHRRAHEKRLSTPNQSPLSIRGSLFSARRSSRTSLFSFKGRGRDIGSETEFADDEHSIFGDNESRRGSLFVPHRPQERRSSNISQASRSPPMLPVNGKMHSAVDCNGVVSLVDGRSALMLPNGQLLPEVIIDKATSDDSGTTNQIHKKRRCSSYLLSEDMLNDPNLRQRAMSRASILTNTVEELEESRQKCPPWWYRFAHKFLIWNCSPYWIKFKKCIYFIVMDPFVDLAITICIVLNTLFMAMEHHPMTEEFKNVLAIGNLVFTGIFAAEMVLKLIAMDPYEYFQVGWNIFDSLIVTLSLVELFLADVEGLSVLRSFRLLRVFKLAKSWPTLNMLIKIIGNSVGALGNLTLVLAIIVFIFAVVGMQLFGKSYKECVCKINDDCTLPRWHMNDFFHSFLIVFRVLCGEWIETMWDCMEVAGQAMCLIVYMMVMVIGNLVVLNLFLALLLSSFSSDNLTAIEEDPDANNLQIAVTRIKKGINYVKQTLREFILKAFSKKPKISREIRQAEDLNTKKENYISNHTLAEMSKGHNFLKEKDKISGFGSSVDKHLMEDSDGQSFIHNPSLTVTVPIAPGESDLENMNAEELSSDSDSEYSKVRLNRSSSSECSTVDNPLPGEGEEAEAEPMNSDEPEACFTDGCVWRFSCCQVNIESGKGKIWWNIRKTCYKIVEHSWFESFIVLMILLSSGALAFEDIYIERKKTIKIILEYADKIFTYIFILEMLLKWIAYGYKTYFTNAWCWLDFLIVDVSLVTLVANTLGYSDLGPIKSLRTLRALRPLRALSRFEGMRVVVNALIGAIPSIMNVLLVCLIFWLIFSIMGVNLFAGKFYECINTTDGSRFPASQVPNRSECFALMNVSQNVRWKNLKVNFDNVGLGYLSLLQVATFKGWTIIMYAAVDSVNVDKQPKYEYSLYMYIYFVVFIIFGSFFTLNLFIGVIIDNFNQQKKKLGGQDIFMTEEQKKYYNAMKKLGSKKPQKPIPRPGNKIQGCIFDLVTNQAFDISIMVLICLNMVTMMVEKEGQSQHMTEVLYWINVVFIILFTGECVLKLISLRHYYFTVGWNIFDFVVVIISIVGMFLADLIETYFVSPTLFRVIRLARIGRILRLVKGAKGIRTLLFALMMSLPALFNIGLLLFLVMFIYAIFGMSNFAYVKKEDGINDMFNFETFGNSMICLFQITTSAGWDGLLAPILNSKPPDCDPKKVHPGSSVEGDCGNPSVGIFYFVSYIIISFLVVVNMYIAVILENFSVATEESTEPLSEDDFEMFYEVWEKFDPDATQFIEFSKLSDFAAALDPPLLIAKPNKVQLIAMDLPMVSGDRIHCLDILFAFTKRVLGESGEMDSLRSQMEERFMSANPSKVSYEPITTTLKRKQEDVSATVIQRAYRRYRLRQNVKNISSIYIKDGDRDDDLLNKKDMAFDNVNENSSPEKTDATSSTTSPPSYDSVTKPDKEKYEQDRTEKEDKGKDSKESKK
UniProt Q9Y5Y9, whole entry, looked up: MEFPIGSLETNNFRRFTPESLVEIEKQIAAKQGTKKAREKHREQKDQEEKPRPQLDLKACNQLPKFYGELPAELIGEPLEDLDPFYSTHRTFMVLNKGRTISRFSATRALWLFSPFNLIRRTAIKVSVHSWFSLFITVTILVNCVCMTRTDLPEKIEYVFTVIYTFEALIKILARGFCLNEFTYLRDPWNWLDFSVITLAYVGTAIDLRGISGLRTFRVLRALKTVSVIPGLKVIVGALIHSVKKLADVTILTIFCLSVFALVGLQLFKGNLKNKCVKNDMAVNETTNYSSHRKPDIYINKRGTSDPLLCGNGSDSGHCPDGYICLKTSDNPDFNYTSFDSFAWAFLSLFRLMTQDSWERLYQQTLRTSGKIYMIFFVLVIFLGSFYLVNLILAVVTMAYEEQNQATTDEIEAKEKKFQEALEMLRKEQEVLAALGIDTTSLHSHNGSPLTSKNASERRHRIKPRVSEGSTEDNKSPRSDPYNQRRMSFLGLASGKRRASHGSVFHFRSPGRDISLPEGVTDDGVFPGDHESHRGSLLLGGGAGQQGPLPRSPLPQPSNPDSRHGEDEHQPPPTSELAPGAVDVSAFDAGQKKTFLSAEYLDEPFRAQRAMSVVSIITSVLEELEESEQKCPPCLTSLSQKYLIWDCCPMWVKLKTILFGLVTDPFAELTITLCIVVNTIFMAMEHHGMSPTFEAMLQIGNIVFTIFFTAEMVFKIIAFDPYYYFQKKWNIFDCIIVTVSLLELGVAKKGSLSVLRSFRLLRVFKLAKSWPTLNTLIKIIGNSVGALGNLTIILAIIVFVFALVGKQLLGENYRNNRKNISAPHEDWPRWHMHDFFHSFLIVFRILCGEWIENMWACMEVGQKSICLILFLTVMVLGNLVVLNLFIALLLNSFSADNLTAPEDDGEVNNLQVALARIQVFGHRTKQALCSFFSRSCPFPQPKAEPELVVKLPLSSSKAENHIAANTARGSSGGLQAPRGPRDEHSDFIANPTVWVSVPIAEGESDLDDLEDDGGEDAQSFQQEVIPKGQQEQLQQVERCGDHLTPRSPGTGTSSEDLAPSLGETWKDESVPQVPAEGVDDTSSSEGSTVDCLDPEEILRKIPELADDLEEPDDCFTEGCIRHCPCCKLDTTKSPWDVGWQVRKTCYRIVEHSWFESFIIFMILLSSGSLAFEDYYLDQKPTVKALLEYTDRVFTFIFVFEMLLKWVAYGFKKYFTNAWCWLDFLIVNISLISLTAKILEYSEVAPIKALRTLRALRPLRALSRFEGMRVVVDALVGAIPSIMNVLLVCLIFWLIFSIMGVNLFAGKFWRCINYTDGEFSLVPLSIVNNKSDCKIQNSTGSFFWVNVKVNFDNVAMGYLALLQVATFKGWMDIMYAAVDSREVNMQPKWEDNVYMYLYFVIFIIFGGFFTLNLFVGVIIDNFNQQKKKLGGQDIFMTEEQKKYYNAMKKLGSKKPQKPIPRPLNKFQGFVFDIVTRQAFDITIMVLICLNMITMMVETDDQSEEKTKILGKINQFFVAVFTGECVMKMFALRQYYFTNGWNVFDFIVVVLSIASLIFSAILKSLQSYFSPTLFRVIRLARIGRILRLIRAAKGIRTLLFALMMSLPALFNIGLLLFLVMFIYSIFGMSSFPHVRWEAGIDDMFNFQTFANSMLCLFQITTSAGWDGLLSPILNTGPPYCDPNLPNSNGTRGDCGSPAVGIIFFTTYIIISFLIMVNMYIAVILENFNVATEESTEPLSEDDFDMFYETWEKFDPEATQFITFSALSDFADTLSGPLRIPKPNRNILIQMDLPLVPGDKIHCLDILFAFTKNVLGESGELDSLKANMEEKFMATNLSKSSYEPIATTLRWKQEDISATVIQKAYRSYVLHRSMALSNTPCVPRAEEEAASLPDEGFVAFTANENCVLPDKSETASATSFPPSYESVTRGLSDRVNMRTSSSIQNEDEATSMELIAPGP
UniProt Q14524, whole entry, looked up: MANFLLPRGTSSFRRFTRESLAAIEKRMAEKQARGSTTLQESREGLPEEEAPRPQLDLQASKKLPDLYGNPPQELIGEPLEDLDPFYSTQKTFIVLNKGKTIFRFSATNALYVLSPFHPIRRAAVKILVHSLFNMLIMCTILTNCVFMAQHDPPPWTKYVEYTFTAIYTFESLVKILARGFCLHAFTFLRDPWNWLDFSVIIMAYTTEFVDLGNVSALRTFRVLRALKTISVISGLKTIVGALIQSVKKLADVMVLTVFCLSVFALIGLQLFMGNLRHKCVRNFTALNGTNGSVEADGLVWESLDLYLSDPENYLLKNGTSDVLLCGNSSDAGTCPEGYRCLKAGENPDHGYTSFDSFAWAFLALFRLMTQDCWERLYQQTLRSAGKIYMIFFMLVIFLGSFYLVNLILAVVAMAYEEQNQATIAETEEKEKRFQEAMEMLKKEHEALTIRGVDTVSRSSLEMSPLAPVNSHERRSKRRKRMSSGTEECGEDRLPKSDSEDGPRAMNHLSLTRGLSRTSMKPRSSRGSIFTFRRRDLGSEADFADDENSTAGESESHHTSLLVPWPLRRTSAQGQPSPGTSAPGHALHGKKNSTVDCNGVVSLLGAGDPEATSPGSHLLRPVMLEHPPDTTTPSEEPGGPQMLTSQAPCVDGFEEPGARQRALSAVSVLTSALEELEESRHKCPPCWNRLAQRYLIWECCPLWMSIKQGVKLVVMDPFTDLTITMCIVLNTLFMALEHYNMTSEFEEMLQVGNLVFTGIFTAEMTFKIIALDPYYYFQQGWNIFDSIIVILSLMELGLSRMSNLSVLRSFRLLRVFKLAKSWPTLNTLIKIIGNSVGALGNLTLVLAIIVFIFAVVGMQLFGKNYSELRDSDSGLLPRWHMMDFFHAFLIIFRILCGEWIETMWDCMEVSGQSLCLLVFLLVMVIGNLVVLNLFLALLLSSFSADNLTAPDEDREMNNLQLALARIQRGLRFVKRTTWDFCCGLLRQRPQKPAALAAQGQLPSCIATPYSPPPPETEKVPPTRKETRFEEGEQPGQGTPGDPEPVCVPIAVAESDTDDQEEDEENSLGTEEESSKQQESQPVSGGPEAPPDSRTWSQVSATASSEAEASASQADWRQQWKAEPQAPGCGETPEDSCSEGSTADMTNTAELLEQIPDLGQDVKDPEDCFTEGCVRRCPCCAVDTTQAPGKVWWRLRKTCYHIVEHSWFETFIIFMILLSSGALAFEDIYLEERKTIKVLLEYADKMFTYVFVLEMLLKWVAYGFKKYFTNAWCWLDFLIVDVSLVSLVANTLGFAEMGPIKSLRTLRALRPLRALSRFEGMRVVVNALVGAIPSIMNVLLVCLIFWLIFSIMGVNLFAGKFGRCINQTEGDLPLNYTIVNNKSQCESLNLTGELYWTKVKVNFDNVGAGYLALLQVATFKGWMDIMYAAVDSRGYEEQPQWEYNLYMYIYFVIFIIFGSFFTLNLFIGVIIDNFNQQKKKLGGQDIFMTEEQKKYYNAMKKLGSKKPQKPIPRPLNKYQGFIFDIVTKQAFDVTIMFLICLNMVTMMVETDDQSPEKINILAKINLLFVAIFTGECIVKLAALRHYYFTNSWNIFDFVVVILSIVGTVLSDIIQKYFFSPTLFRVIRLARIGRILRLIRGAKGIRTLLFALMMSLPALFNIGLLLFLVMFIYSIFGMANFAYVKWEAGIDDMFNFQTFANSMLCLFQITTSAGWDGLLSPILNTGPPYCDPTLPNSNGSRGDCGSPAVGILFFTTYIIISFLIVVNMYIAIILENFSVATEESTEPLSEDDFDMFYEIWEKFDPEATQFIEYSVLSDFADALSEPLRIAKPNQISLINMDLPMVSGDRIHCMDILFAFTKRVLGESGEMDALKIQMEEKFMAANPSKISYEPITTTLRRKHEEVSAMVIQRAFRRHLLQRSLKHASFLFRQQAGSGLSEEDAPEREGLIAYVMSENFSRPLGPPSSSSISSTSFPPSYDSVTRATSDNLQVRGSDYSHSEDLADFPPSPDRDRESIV

One series addresses human NaV1.1 (Homo sapiens, UniProt P35498). As to the kind of experiment: Automated whole-cell patch-clamp, hNaV1.1. The settings on record: read-out: Potency (IC50) at NaV1.1; HEK293 cells, hNaV1.1 α + β1; QPatch16 II whole-cell patch-clamp; holding −90 mV, 50-ms pulse to −20 mV, 0.05 Hz; 5-min incubation per concentration; mean ± SEM. For orientation: Patch clamp records ionic current or voltage across a cell membrane.

The target of a further series is human NaV1.2 (Homo sapiens, UniProt Q99250). As to the kind of experiment: Automated whole-cell patch-clamp, hNaV1.2. The settings on record: read-out: Potency (IC50) at NaV1.2; HEK293 cells, hNaV1.2 α + β1; QPatch16 II whole-cell patch-clamp; holding −90 mV, 50-ms pulse to −20 mV, 0.05 Hz; 5-min incubation per concentration; mean ± SEM.
In another series the target is human NaV1.4 (Homo sapiens, UniProt P35499). The experiment in a line: Automated whole-cell patch-clamp, hNaV1.4. The settings on record: for IC50: read-out: Potency (IC50) at NaV1.4, HEK293 cells, hNaV1.4 α + β1, QPatch16 II whole-cell patch-clamp, holding −90 mV, 50-ms pulse to −20 mV, 0.05 Hz, 5-min incubation per concentration, mean ± SEM.
In a further series the target is human NaV1.7 (Homo sapiens, UniProt Q15858). As to the kind of experiment: Automated whole-cell patch-clamp, hNaV1.7. The settings on record: read-out: Potency (IC50) at NaV1.7; HEK293 cells, hNaV1.7 α + β1; QPatch16 II whole-cell patch-clamp; holding −90 mV, 50-ms pulse to −20 mV, 0.05 Hz; 5-min incubation per concentration; mean ± SEM.
In the next series the target is human NaV1.8 (Homo sapiens, UniProt Q9Y5Y9). The experiment in a line: Automated whole-cell patch-clamp, hNaV1.8. The settings on record: tested up to 10 µM.
The target in a further series is human NaV1.5 (Homo sapiens, UniProt Q14524). As to the kind of experiment: Automated whole-cell patch-clamp, hNaV1.5.

One may read the IC50 as the midpoint of a concentration-inhibition curve. Consider `CC(C)[C@H](NC(=O)[C@@H]1CCCN1C(=O)[C@@H](N)CCCNC(=N)N)C(=O)N[C@H]1CSSC[C@@H]2NC(=O)[C@H](Cc3c[nH]c4ccccc34)NC(=O)[C@H](CCCNC(=N)N)NC(=O)[C@H](CO)NC(=O)[C@H](CO)NC(=O)[C@@H]3CSSC[C@@H](C(N)=O)NC(=O)[C@H](CSSC[C@H](NC1=O)C(=O)N[C@@H]([C@@H](C)O)C(=O)NCC(=O)N[C@@H](CCCCN)C(=O)NCC(=O)N[C@@H](CCCCN)C(=O)N[C@@H](CCCNC(=N)N)C(=O)NCC(=O)N3)NC(=O)[C@H](CCCNC(=N)N)NC(=O)[C@H](CO)NC(=O)[C@H](Cc1c[nH]cn1)NC(=O)[C@H](CC(=O)O)NC(=O)[C@H](CCCNC(=N)N)NC2=O`, for which the IC50 is 96 nM on human NaV1.1, 587 nM on human NaV1.2, 26 nM on human NaV1.4 and 137 nM at human NaV1.7.
For `CC(C)[C@H](N)C(=O)NCC(=O)N[C@@H](CCC(=O)O)C(=O)N[C@@H](CCCNC(=N)N)C(=O)N[C@H]1CSSC[C@@H]2NC(=O)[C@H](Cc3c[nH]c4ccccc34)NC(=O)[C@H](CCCNC(=N)N)NC(=O)CNC(=O)[C@@H]3CSSC[C@@H](C(N)=O)NC(=O)[C@H](CSSC[C@H](NC1=O)C(=O)N[C@@H](CCCCN)C(=O)N[C@@H](CC(N)=O)C(=O)NCC(=O)N[C@@H](CCCCN)C(=O)N[C@@H](CCCNC(=N)N)C(=O)NCC(=O)N3)NC(=O)[C@H](CCCNC(=N)N)NC(=O)[C@H](CO)NC(=O)[C@H](Cc1c[nH]cn1)NC(=O)[C@H](CC(=O)O)NC(=O)[C@H](CCCNC(=N)N)NC2=O`, the “Activity at hNaV1.8, in words” value on human NaV1.8 was “inactive”.
For `CSCC[C@@H]1NC(=O)[C@H](CCC(N)=O)NC(=O)CNC(=O)[C@H](CC(N)=O)NC(=O)[C@@H]2CCCN2C(=O)[C@H](CCCCN)NC(=O)[C@@H]2CCCN2C(=O)[C@H](CCCNC(=N)N)NC(=O)[C@@H]2CSSC[C@@H]3NC(=O)[C@H](CCCNC(=N)N)NC(=O)[C@H](CO)NC(=O)[C@H](CC(N)=O)NC(=O)[C@H](CCCCN)NC(=O)[C@H](CCC(=O)O)NC(=O)[C@H](CSSC[C@H](NC(=O)[C@H](Cc4ccc(O)cc4)NC(=O)[C@H](CC(C)C)NC(=O)CNC(=O)[C@@H](N)C(C)C)C(=O)N2)NC(=O)[C@H](Cc2c[nH]c4ccccc24)NC(=O)[C@H](CCCNC(=N)N)NC(=O)[C@H](CC(=O)O)NC(=O)[C@H](CSSC[C@@H](C(N)=O)NC3=O)NC(=O)[C@H](CCSC)NC1=O`, the IC50 at human NaV1.4 and on human NaV1.7 was over 10000 nM each time. Moreover, the “Effect on hNaV1.4 current, in words” value on human NaV1.4 (tested up to 10 µM) was “no effect”.
In the case of `CC(C)[C@H](N)C(=O)NCC(=O)N[C@@H](CCC(=O)O)C(=O)N[C@@H](CCCNC(=N)N)C(=O)N[C@H]1CSSC[C@@H]2NC(=O)[C@H](Cc3c[nH]c4ccccc34)NC(=O)[C@H](CCCNC(=N)N)NC(=O)CNC(=O)[C@@H]3CSSC[C@@H](C(N)=O)NC(=O)[C@H](CSSC[C@H](NC1=O)C(=O)N[C@@H](CCCCN)C(=O)N[C@@H](CC(N)=O)C(=O)NCC(=O)N[C@@H](CCCCN)C(=O)N[C@@H](CCCNC(=N)N)C(=O)NCC(=O)N3)NC(=O)[C@H](CCCNC(=N)N)NC(=O)[C@H](CO)NC(=O)[C@H](Cc1cnc[nH]1)NC(=O)[C@H](CC(=O)O)NC(=O)[C@H](CCCNC(=N)N)NC2=O`, the concentration for half-maximal inhibition (IC50) on human NaV1.1 is 59 nM; on human NaV1.2, 79 nM; at human NaV1.4 it was 11 nM; on human NaV1.5 (read-out: Potency (IC50) at NaV1.5, HEK293 cells, hNaV1.5 α + β1, QPatch16 II whole-cell patch-clamp, holding −90 mV, 50-ms pulse to −20 mV, 0.05 Hz, 5-min incubation per concentration, mean ± SEM) it was over 10 µM; on human NaV1.7, 55 nM. For the same compound, on human NaV1.5 (tested up to 10 µM), the “Activity at hNaV1.5, in words” value was “inactive”.
As for `CC(C)C[C@@H]1NC(=O)[C@H](CCCNC(=N)N)NC(=O)[C@@H]2CCCN2C(=O)[C@H](CCCNC(=N)N)NC(=O)[C@@H]2CSSC[C@@H]3NC(=O)[C@H](CCCNC(=N)N)NC(=O)[C@H](CO)NC(=O)[C@H](Cc4c[nH]cn4)NC(=O)[C@H](CO)NC(=O)[C@H](CCCCN)NC(=O)[C@H](CSSC[C@H](NC(=O)[C@H](Cc4c[nH]cn4)NC(=O)[C@H](CCC(=O)O)NC(=O)CNC(=O)[C@@H](N)C(C)C)C(=O)N2)NC(=O)[C@H](Cc2c[nH]c4ccccc24)NC(=O)[C@H](CCCNC(=N)N)NC(=O)[C@H](CC(=O)O)NC(=O)[C@H](CSSC[C@@H](C(N)=O)NC3=O)NC(=O)[C@H](CCC(=O)O)NC(=O)[C@H](CCCNC(=N)N)NC(=O)[C@H](CCCCN)NC(=O)CNC(=O)[C@H](CCCNC(=N)N)NC(=O)[C@H](Cc2c[nH]c3ccccc23)NC(=O)[C@H](CC(C)C)NC(=O)[C@@H]2CCCN2C(=O)[C@H](CCCCN)NC(=O)[C@@H]2CCCN2C(=O)[C@H](CCCNC(=N)N)NC1=O`, the half-inhibitory concentration (IC50) at human NaV1.1 was determined as 911 nM; on human NaV1.2, 643 nM; on human NaV1.4, 193 nM; at human NaV1.7, 633 nM.
